A mixed list of measured activities; the numbers were collected in NIAID ChemDB.

Common to all: tests on isolated targets; organism: Hepatitis C virus; target: Nonstructural protein 5B; read-out: IC50

Rows are shuffled and stem from different studies.

compound	strain or isolate	method	result
CC(C)Oc1cc2c(C(=O)NC3CC3)c(-c3ccc(F)cc3)oc2cc1NS(C)(=O)=O			≤0.5 µM
CC(=O)c1ccccc1-c1ccc(C=C2SC(=S)N(c3ccc(C(=O)O)cc3)C2=O)o1			≤1 µM
CNC(=O)c1c(-c2ccc(F)cc2)oc2cc(-c3c(C)noc3C)c(OCCN3CCOCC3)cc12			≤0.5 µM
O=Cc1ccc(C=C2SC(=S)N(c3ccc(C(=O)O)cc3)C2=O)o1			≤1 µM
COc1ccc(CCC2(C3CCCC3)CC(=O)C(C(=O)Cc3cc(C)no3)C(=O)O2)c(OC)c1			10–50 µM
Cc1ccc(-c2ccc(C=C3SC(=S)N(CCC(=O)O)C3=O)o2)nc1			≤1 µM
CCN(C1=C(O)C[C@](CCc2ccc(O)cc2)(C2CCCC2)OC1=O)c1ccccc1			1–10 µM
O=C(O)c1ccc(N2C(=O)C(=Cc3ccc(-c4ccccc4Cl)o3)SC2=S)cc1			≤1 µM
CNC(=O)c1c(-c2ccc(F)cc2F)oc2ccc(OC(C)C)cc12			≤0.5 µM
COc1ccc(CCC2(C3CCCC3)CC(=O)C(C(=O)Cc3cccnc3)C(=O)O2)c(OC)c1			1–10 µM
CNC(=O)c1c(-c2ccc(F)cc2)oc2cc(N(CCO)S(C)(=O)=O)c(OC(C)C)cc12			≤0.5 µM
COc1ccc(CCC2(C3CCCC3)CC(O)=C(Sc3nc4nc(C)cc(C)[n+]4[nH]3)C(=O)O2)cc1Cl			<1 µM
COc1c(-c2ccc3cc(NS(C)(=O)=O)ccc3c2)cc(-n2ccc(=O)[nH]c2=O)cc1C(C)(C)C	GT 1b#1	nucleotide incorporation	0.0043 µM
COc1ccc(CCC2(C3CCCC3)CC(=O)C(C(=O)Cc3ccccc3)C(=O)O2)c(OC)c1			10–50 µM
CNC(=O)c1c(-c2ccc(F)cc2)oc2cc(OCc3ccccc3)c(OCc3ccccc3)cc12			>30 µM
O=C(O)c1ccc(N2C(=O)C(=Cc3ccc(-c4cc(F)cc(F)c4)o3)SC2=S)cc1			≤1 µM

A second listing of 2 rows from above:

| compound | strain or isolate | method | result |
|---|---|---|---|
| CCN(C1=C(O)C[C@](CCc2ccc(O)cc2)(C2CCCC2)OC1=O)c1ccccc1 |  |  | 1–10 µM |
| CNC(=O)c1c(-c2ccc(F)cc2)oc2cc(OCc3ccccc3)c(OCc3ccccc3)cc12 |  |  | >30 µM |

An empty or dashed field is not shown. Two numbers with a dash give a range or band. ICn is the concentration giving n% inhibition.